Compound potency records, mixed from different reports. Data source: NIAID ChemDB in PubChem.

Common to all: growth or infection tests; species: Coxsackie virus; method: plaque count; read-out: EC50

Lines come from different laboratories, so protocols vary. ECn: concentration that inhibits the pathogen or its effect by n%.

SMILES | cell line | strain or isolate | result
Nc1ncnc2c1nnn2[C@@H]1O[C@H](CO)[C@@H](O)[C@H]1O | VERO | B1 | >4.5 µM
CSc1nsc(-c2ccc(OCCOc3ccc(C#N)cc3)cc2)c1C#N | HEP-2/L-929/VERO | TYPE B1 | >2 µM
Nc1nccc2nnn([C@@H]3O[C@H](CO)[C@@H](O)[C@H]3O)c12 | VERO | B1 | >398 µM
COc1cc(OC)c(OC)cc1/C=N/N=C(/N)NO.Cc1ccc(S(=O)(=O)O)cc1 | VERO | ATCC VR28 (TYPE B1) | >50 µM
COC(=O)[C@]1(C)CCC[C@]2(C)c3cc(Br)c4[nH]ccc4c3CCC12 | HeLa | TYPE B4 | >4 µg/mL
CSc1nsc(-c2ccc(OCCCc3ccccc3)cc2)c1C#N | HEP-2/L-929/VERO | TYPE B1 | 10 µM
CSc1nsc(-c2ccc(Cl)cc2)c1C#N | HEP-2 | TYPE B1 | >5 µM
COc1cc(OC)c(/C=N/N=C(/N)NO)c(OC)c1.Cc1ccc(S(=O)(=O)O)cc1 | VERO | ATCC VR28 (TYPE B1) | >50 µM
OC[C@H]1O[C@@H](n2nc3ccnc(Cl)c3n2)[C@H](O)[C@@H]1O | VERO | B1 | 80 µM
Cc1cc(CCCCCOc2c(Cl)cc(C3=NCCO3)cc2Cl)on1 | RD-2 | B4 | 0.02 µg/mL
CSc1nsc(-c2ccc(OCCOc3ccccc3)cc2)c1C#N | HEP-2/L-929/VERO | TYPE B1 | >20 µM
COC(=O)[C@]1(C)CCC[C@]2(C)c3cc(Br)c4nc(C)[nH]c4c3CCC12 | HeLa | TYPE B4 | >4 µg/mL
Nc1nccc2c1ncn2[C@H]1CC[C@@H](CO)O1 | VERO | B1 | >429 µM
CSc1nsc(-c2ccccn2)c1C#N | HEP-2 | TYPE B1 | >50 µM
CSc1nsc(-c2ccc(OCCCCOc3ccc([N+](=O)[O-])cc3)cc2)c1C#N | HEP-2/L-929/VERO | TYPE B1 | >0.5 µM
S=c1cc(-c2ccccc2)s[nH]1 | HEP-2 | TYPE B1 | >90 µM
COC(=O)[C@]1(C)CCC[C@]2(C)c3ccc4nc5c(nc4c3CCC12)CCCC5 | HeLa | TYPE B4 | >4 µg/mL
CSc1nsc(-c2ccc[n+](C)c2)c1C#N | HEP-2 | TYPE B1 | >1250 µM
Cc1ccc(S(=O)(=O)O)cc1.N/C(=N/N=C/c1ccc2c(c1)OCO2)NO | VERO | ATCC VR28 (TYPE B1) | >50 µM
COC(=O)[C@]1(C)CCC[C@]2(C)c3ccc4[nH]cnc4c3CCC12 | HeLa | TYPE B4 | >4 µg/mL

A second listing of 2 rows from above:

COC(=O)[C@]1(C)CCC[C@]2(C)c3ccc4[nH]cnc4c3CCC12 ; cell line: HeLa ; strain or isolate: TYPE B4 ; result: >4 µg/mL
COC(=O)[C@]1(C)CCC[C@]2(C)c3cc(Br)c4[nH]ccc4c3CCC12 ; cell line: HeLa ; strain or isolate: TYPE B4 ; result: >4 µg/mL